Experimental data from PubChem BioAssay AID651644 (National Center for Advancing Translational Sciences (NCATS), 2012).
This is a selection; strong and weak results do not stand in their true shares. Active and inactive are the calls of the source. The call rests on the fitted dose curve; in most records, active means well fitted falling curve with a large enough effect; inconclusive means small, poorly fitted or top-dose-only effect; inactive means no such curve, though single readings can be large or run the other way.

Assay: qHTS Assay for Inhibitors of the HIV-1 protein Vpr; further: nearly all actives have a fitted effect of over 50% in size
Conditions: S. pombe RE007 Vpr strain, BacTiter-Glo ATP luminescence, 24 h; at 92.2 µM (top of the series)
On the % scale 0 is the no-effect control and ±100 the full control effect.

| Compound | activity change, negative = less growth |
| --- | --- |
| N/C(=N\O)c1c(N)no[n+]1[O-] | inactive: -4.47% |
| COc1cccc(C(c2nnnn2C(C)(C)C)N2CCC(n3c(=O)[nH]c4ccccc43)CC2)c1OC (stereo not drawn) | inactive: 4.47% |
| CCOC(=O)N1CCC(Nc2ccc(C)cc2)CC1 | inactive: -24.4% |
| CCCCn1nnnc1C(c1cccc(OC)c1OC)N1CCC(n2c(=O)[nH]c3ccccc32)CC1 (stereo not drawn) | inactive: 3.32% |
| O=C(OC1CN2CCC1CC2)C1c2ccccc2C=Cc2ccccc21 (stereo not drawn) | inactive: 6.37% |
| CCc1cc(C(=O)NCC2(N3CCCCC3)CCCCC2)sc1C | inactive: -7.6% |
| O=c1[nH]c2ccccc2n1C1CCN(C(c2cccs2)c2nnnn2C2CCCC2)CC1 (stereo not drawn) | inactive: 3.17% |
| O=C(O)c1cccc(Nc2c([N+](=O)[O-])cc([N+](=O)[O-])cc2[N+](=O)[O-])c1 | inactive: -0.252% |
| O=C(NCC1(N2CCOCC2)CCCCC1)c1cc(Br)ccc1Cl | inactive: -15.3% |
| CCCCn1nnnc1C(c1ccccc1)N1CCC(n2c(=O)[nH]c3ccccc32)CC1 (stereo not drawn) | inactive: -0.636% |
| COc1cc(C(=O)NCC2(N3CCOCC3)CCCCC2)cc(OC)c1C | inactive: -7.19% |
| COc1ccc(C(=O)NCC2(N3CCOCC3)CCCCC2)cc1OC | inactive: -14.9% |
| O=c1[nH]c2ccccc2n1C1CCN(C(c2ccnc3ccccc23)c2nnnn2C2CCCC2)CC1 (stereo not drawn) | inactive: 5.31% |
| O=c1[nH]c2ccccc2n1C1CCN(C(c2cccs2)c2nnnn2C2CCCCC2)CC1 (stereo not drawn) | inactive: -12.2% |
| c1ccc(CN2CCC(Nc3ccccc3)CC2)cc1 | inactive: -8.11% |
| O=c1[nH]c2ccccc2n1C1CCN(C(c2ccccc2)c2nnnn2C2CCCC2)CC1 (stereo not drawn) | inactive: 0.0669% |
| CCCN1CCC(Nc2cc(OC)cc(OC)c2)CC1 | inactive: -5.17% |
| Cc1cc(N(CCCl)CCCl)ccc1C=O | inactive: -27% |
| CN(C)C1(CNC(=O)c2cccc(C#N)c2)CCCCC1 | inactive: -7.31% |
| CC(C)(C)n1nnnc1C(c1cccc2ccccc12)N1CCC(n2c(=O)[nH]c3ccccc32)CC1 (stereo not drawn) | inactive: 1.78% |

| Compound | activity change, negative = less growth |
| --- | --- |
| CC(C)(C)OC(=O)N1CCC(N(C(=O)c2ccccc2)c2ccc(Cl)cc2)CC1 | inactive: -1.64% |
| N#Cc1ccc(C(=O)NCC2(N3CCCCC3)CCCCC2)cc1 | inactive: -4.25% |
| CCOC(=O)C(CC)C1=NC(C)(C)Cc2ccccc21.O=[N+]([O-])c1cc([N+](=O)[O-])c(O)c([N+](=O)[O-])c1 (stereo not drawn) | inactive: 2.43% |
| Cc1ccccc1NC1(C#N)CCN(Cc2ccccc2)CC1 | inactive: 5.58% |
| CC(C)(C)n1nnnc1C(c1ccnc2ccccc12)N1CCC(n2c(=O)[nH]c3ccccc32)CC1 (stereo not drawn) | inactive: 0.245% |
| COc1ccc(C(c2nnnn2C2CCCCC2)N2CCC(n3c(=O)[nH]c4ccccc43)CC2)cc1 (stereo not drawn) | inactive: -6.49% |
| CCN1CCC(Nc2cccc(F)c2)CC1 | inactive: 2.37% |
| O=C(NCC1(N2CCCCC2)CCCCC1)c1ccco1 | inactive: -2.04% |
| Cn1c(=O)[nH]cc(N(CCCl)CCCl)c1=O | inactive: -25.2% |
| CN(C)c1ccc(C(=O)NCC2(N3CCCCC3)CCCCC2)cc1 | inactive: -4.68% |
| O=c1[nH]c2ccccc2n1C1CCN(C(c2ccnc3ccccc23)c2nnnn2C2CCCCC2)CC1 (stereo not drawn) | inactive: -7.14% |
| COc1cc(OC)cc(C(=O)NCC2(N3CCCCC3)CCCCC2)c1 | inactive: 1.18% |
| CC(=O)N(c1ccccc1)C1CCNCC1 | inactive: -9.05% |
| COc1cccc(C(c2nnnn2C2CCCCC2)N2CCC(n3c(=O)[nH]c4ccccc43)CC2)c1OC (stereo not drawn) | inactive: 3.37% |
| CCC(c1nnnn1C1CCCCC1)N1CCC(n2c(=O)[nH]c3ccccc32)CC1 (stereo not drawn) | inactive: -0.319% |
| Cc1ccc(NC2(C#N)CCN(Cc3ccccc3)CC2)cc1 | inactive: -3.38% |
| Cc1ccc(C(=O)NCC2(N3CCCCC3)CCCCC2)o1 | inactive: -7.8% |
| Fc1ccccc1NC1CCN(Cc2ccccc2)CC1 | inactive: -3.46% |
| CCC(CO)(C(=O)OC1CN2CCC1CC2)c1ccccc1 (stereo not drawn) | inactive: 1.74% |
| COc1cc(OC)cc(C(=O)NCC2(N3CCOCC3)CCCCC2)c1 | inactive: 17.3% |

| Compound | activity change, negative = less growth |
| --- | --- |
| COc1cccc(C(c2nnnn2C2CCCC2)N2CCC(n3c(=O)[nH]c4ccccc43)CC2)c1OC (stereo not drawn) | inactive: 1.06% |
| COc1cccc(C(=O)N(c2cc(C)cc(C)c2)C2CCN(C(=O)OC(C)(C)C)CC2)c1 | inactive: -21.3% |
| CN1CCC(Nc2ccc(Cl)cc2)CC1 | inactive: 2.87% |
| CCOc1ncccc1C(=O)NCC1(N2CCOCC2)CCCCC1 | inactive: -1.24% |
| CN1CCC(Nc2ccc(F)c(Cl)c2)CC1 | inactive: -5.96% |
| CCCOc1ccc(C(=O)NCC2(N(C)C)CCCCC2)cc1 | inactive: -2.56% |
| O=c1[nH]c2ccccc2n1C1CCN(C(c2cc3ccccc3o2)c2nnnn2C2CCCC2)CC1 (stereo not drawn) | inactive: 3.29% |
| CC(C)(C)OC(=O)N1CCC(Nc2ccccc2)CC1 | inactive: 4.85% |
| O=C(O)C1(Nc2ccccc2)CCN(Cc2ccccc2)CC1 | inactive: 6.48% |
| NN(c1ccccc1)C1CCN(CCc2ccccc2)CC1 | inactive: -13.9% |
| O=C(NCC1(N2CCOCC2)CCCCC1)c1cc2ccccc2o1 | inactive: 3.74% |
| O=c1[nH]c2ccccc2n1C1CCN(C(c2ccccc2OC(F)(F)F)c2nnnn2C2CCCCC2)CC1 (stereo not drawn) | inactive: -0.672% |
| O=C(NCC1(N2CCCCC2)CCCCC1)c1ccc(Cl)nc1 | inactive: 2.83% |
| Cc1cc(C)cc(N(C(=O)c2ccccc2)C2CCN(C(=O)OC(C)(C)C)CC2)c1 | inactive: 12.1% |
| CCOC(=O)N1CCC(Nc2ccc(OC)cc2)CC1 | inactive: 0.757% |
| CCCCn1nnnc1C(c1ccc(OC)cc1)N1CCC(n2c(=O)[nH]c3ccccc32)CC1 (stereo not drawn) | inactive: -9.53% |
| O=C(OC1CN2CCC1CC2)C1c2ccccc2Oc2ccccc21 (stereo not drawn) | inactive: -8.15% |
| O=c1[nH]c2ccccc2n1C1CCN(C(c2cc3ccccc3o2)c2nnnn2C2CCCCC2)CC1 (stereo not drawn) | inactive: 8.89% |
